This note sets out measurements from US8354433B2, “Anti-inflammatory agents as virostatic compounds” (4SC AG, priority 2009, dated 2013).

Molecules are shown by their SMILES.

In series [1] the test system is HCV subgenomic replicon of genotype 1b. Format: cell-based, Hepatitis C Virus.
In series [2] the test system is HIV-191US005. Put plainly: Anti-HIV efficacy in fresh human PBMCs (RT activity and p24 ELISA). Format: cell-based, HIV-1. The conditions noted are these: TI=TC/IC. For orientation: In an ELISA, binding on a coated surface is turned into a signal by an enzyme label.

In the case of `O=C(Nc1c(F)c(F)c(-c2cccc(OC(F)(F)F)c2)c(F)c1F)c1ccsc1C(=O)O` [Compound 1, 3-(2,3,5,6-Tetrafluoro-3′-trifluoromethoxy-biphenyl-4-ylcarbamoyl)-thiophene-2-carboxylic acid], the results for the “Therapeutic Index” value in series [1], in series [2] (Endpoint RT) and in series [2] (Endpoint p24) were more than 1250, more than 842 and more than 598, respectively.

As for `O=C(O)C1=C(C(=O)Nc2c(F)cc(-c3ccccc3Cl)cc2F)CSC1` [Compound 2, 4-(2′-Chloro-3,5-difluoro-biphenyl-4-ylcarbamoyl)-2,5-dihydro-thiophene-3-carboxylic acid], the “Therapeutic Index” value in series [1] was more than 147; in series [2] (Endpoint RT), more than 109; in series [2] (Endpoint p24), more than 72.

With `O=C(Nc1ccc(-c2ccccc2)cc1)Nc1ccccc1C(=O)O` [Compound 7, 2-(3-biphenyl-4-ylureido)benzoic acid], the “Therapeutic Index” value in series [2] (Endpoint RT) is reported as more than 2046; in series [2] (Endpoint p24) it was more than 1804.

As to `COc1cccc(-c2c(F)c(F)c(NC(=O)c3occc3C(=O)O)c(F)c2F)c1` [Compound 8, 2-(2,3,5,6-tetrafluoro-3′-methoxybiphenyl-4-ylcarbamoyl)furan-3-carboxylic acid], the “Therapeutic Index” value in series [2] (Endpoint RT) is recorded as more than 131; in series [2] (Endpoint p24) it was more than 119.

Consider `COc1ccc(-c2ccc(NC(=O)C3=C(C(=O)O)CCC3)cc2Cl)cc1` [Compound 14, 2-(2-chloro-4′-methoxybiphenyl-4-ylcarbamoyl)cyclopent-1-enecarboxylic acid], for which the “Therapeutic Index” value in series [2] (Endpoint RT) and in series [2] (Endpoint p24) was more than 19 throughout.

Turning to `O=C(O)C1=C(C(=O)Nc2ccc(OCc3c(F)cccc3Cl)c(F)c2)CCC1` [Compound 21, 2-[4-(2-Chloro-6-fluoro-benzyloxy)-3-fluoro-phenylcarbamoyl]-cyclopent-1-enecarboxylic acid], in series [1], the “Therapeutic Index” value is given as more than 17.

`O=C(O)C1=C(C(=O)Nc2cc(Cl)c(OCc3c(F)cccc3Cl)c(Cl)c2)CCC1` [Compound 22, 2-[3,5-Dichloro-4-(2-chloro-6-fluoro-benzyloxy)-phenylcarbamoyl]-cyclopent-1-enecarboxylic acid]: in series [1], the “Therapeutic Index” value was more than 17.

Turning to `CN(C)c1ccc(-c2ccc(NC(=O)C3=C(C(=O)O)CCC3)cc2Cl)cc1` [Compound 23, 2-(2-Chloro-4′-dimethylamino-biphenyl-4-ylcarbamoyl)-cyclopent-1-enecarboxylic acid], the entries for the “Therapeutic Index” value in series [2] (Endpoint RT) and in series [2] (Endpoint p24) were more than 93 and more than 99, respectively.

Regarding `COc1cccc(-c2ccc(NC(=O)c3ccsc3C(=O)O)c(F)c2)c1` [Compound 24, 3-(3-Fluoro-3′-methoxy-biphenyl-4-ylcarbamoyl)-thiophene-2-carboxylic acid], the “Therapeutic Index” value in series [2] (Endpoint RT) worked out at 14; in series [2] (Endpoint p24), 12.
